Reference: ChEMBL document CHEMBL5346973 (J Med Chem, 2023)

Chains of the proteins cited; added tags and fusions are not shown. Residues count along the entry.
UniProt P04756, 21-457 limits assumed: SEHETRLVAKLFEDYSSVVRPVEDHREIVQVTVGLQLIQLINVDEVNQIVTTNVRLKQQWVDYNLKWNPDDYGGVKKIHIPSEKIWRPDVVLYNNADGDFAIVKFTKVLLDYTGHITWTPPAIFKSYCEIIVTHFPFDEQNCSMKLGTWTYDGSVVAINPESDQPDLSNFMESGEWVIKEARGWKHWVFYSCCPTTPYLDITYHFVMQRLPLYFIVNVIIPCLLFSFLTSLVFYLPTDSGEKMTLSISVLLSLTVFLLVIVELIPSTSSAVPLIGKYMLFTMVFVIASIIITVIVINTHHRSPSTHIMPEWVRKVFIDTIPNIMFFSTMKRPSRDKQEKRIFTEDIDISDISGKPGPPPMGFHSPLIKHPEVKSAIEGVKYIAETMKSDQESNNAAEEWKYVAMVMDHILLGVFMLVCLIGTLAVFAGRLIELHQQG
UniProt P09690, 24-501 partner limits assumed: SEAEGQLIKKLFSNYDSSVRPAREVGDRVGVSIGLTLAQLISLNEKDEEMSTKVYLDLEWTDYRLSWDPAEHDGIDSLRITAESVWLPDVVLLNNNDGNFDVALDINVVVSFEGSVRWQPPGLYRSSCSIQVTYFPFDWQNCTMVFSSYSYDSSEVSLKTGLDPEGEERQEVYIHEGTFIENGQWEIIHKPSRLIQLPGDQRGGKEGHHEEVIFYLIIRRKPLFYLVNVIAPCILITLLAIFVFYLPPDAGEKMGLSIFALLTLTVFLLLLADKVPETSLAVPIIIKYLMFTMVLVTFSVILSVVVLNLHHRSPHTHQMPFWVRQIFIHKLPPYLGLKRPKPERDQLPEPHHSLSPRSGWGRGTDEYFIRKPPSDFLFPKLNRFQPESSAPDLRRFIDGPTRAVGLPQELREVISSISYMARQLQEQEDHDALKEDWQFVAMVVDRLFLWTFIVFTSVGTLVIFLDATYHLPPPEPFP
UniProt P02716, 25-520 partner limits assumed: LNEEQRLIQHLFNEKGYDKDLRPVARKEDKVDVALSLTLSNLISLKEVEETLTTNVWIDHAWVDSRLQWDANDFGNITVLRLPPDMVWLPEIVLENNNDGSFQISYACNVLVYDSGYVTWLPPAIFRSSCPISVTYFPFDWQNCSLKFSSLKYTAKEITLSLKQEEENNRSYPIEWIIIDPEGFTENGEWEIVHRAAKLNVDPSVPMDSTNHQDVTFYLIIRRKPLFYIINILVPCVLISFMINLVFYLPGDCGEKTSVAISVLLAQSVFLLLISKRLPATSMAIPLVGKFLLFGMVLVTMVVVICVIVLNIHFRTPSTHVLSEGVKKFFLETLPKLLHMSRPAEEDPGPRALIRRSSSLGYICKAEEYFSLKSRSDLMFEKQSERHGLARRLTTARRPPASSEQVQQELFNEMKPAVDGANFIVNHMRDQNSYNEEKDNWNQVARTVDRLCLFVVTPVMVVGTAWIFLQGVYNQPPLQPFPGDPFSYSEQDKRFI
UniProt P20782, 21-493 partner limits assumed: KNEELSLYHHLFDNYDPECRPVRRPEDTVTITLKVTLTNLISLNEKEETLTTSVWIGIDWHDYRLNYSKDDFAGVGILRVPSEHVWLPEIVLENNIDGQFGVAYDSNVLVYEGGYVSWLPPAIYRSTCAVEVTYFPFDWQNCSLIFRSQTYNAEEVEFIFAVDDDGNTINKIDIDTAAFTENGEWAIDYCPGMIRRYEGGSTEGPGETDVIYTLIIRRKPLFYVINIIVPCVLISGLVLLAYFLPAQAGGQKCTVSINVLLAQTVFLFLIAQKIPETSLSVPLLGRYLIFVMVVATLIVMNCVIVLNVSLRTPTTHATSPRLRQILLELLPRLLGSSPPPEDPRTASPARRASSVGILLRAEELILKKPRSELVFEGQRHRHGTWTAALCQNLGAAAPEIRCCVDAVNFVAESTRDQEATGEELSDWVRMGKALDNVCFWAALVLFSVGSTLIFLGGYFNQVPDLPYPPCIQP

Key:
[1] = Selectivity ratio of IC50 for mouse alpha1beta1deltaepsilon nACh receptor to IC50 for rat alpha9alpha10 nACh receptor
[2] = biological target: Nicotinic acetylcholine receptor alpha1/beta1/epsilon/delta (Mus musculus) (UniProt P04756+P09690+P02716+P20782); assay: Antagonist activity at mouse alpha1beta1deltaepsilon nACh receptor expressed in Xenopus oocyte assessed as inhibition of acetylcholine-induced response at -70 mV holding potential by measuring ratio of IC50 by voltage-clamp based electrophysiological assay relative to GeXIVA; settings: filed as antagonist

**Q.** For `CC[C@H](C)[C@@H]1NC(=O)[C@H](CCCNC(=N)N)NC(=O)[C@H](CCCNC(=N)N)NC(=O)[C@@H](NC(=O)[C@H](Cc2ccc(O)cc2)NC(=O)[C@H](CCCNC(=N)N)NC(=O)[C@H](CCCNC(=N)N)NC(=O)[C@H](CCCNC(=N)N)NC(=O)[C@H](CCCNC(=N)N)NC(=O)[C@H](CC(=O)O)NC(=O)[C@H](Cc2ccc(O)cc2)NC(=O)[C@@H]2CCCN2C(=O)[C@H](CO)NC(=O)[C@H](CCCNC(=N)N)NC(=O)[C@@H]2CSSC[C@H](NC(=O)[C@H](C)N)C(=O)N[C@@H](CCCNC(=N)N)C(=O)N[C@@H](CO)C(=O)N[C@@H](CO)C(=O)NCC(=O)N[C@@H](CCCNC(=N)N)C(=O)N[C@@H](Cc3ccc(O)cc3)C(=O)N2)CSSC[C@@H](C(=O)N[C@H](C(=O)O)C(C)C)NC(=O)[C@H](C)NC(=O)[C@H](CC(=O)O)NC(=O)[C@H]([C@@H](C)O)NC1=O`, which Ratio IC50 [1] is on record?
**A.** The Ratio IC50 was 45.7.

**Q.** And the Ratio IC50 [2]?
**A.** The Ratio IC50 was 0.7.

**Q.** For `CC[C@H](C)[C@@H]1NC(=O)[C@H](CCCNC(=N)N)NC(=O)[C@H](CCCNC(=N)N)NC(=O)[C@@H](NC(=O)[C@H](Cc2ccc(O)cc2)NC(=O)[C@H](CCCNC(=N)N)NC(=O)[C@H](C)NC(=O)[C@H](CCCNC(=N)N)NC(=O)[C@H](CCCNC(=N)N)NC(=O)[C@H](CC(=O)O)NC(=O)[C@H](Cc2ccc(O)cc2)NC(=O)[C@@H]2CCCN2C(=O)[C@H](CO)NC(=O)[C@H](CCCNC(=N)N)NC(=O)[C@@H]2CSSC[C@H](NC(=O)[C@@H](N)[C@@H](C)O)C(=O)N[C@@H](CCCNC(=N)N)C(=O)N[C@@H](CO)C(=O)N[C@@H](CO)C(=O)NCC(=O)N[C@@H](CCCNC(=N)N)C(=O)N[C@@H](Cc3ccc(O)cc3)C(=O)N2)CSSC[C@@H](C(=O)N[C@H](C(=O)O)C(C)C)NC(=O)[C@H](C)NC(=O)[C@H](CC(=O)O)NC(=O)[C@H]([C@@H](C)O)NC1=O`, which Ratio IC50 [1] is on record?
**A.** Its Ratio IC50 is 233.

**Q.** What about the Ratio IC50 [2] of the same compound?
**A.** The Ratio IC50 was 12.1.

**Q.** Which Ratio IC50 [1] does the source give for `CC[C@H](C)[C@@H]1NC(=O)[C@H](CCCNC(=N)N)NC(=O)[C@H](C)NC(=O)[C@@H](NC(=O)[C@H](Cc2ccc(O)cc2)NC(=O)[C@H](CCCNC(=N)N)NC(=O)[C@H](CCCNC(=N)N)NC(=O)[C@H](CCCNC(=N)N)NC(=O)[C@H](CCCNC(=N)N)NC(=O)[C@H](CC(=O)O)NC(=O)[C@H](Cc2ccc(O)cc2)NC(=O)[C@@H]2CCCN2C(=O)[C@H](CO)NC(=O)[C@H](CCCNC(=N)N)NC(=O)[C@@H]2CSSC[C@H](NC(=O)[C@@H](N)[C@@H](C)O)C(=O)N[C@@H](CCCNC(=N)N)C(=O)N[C@@H](CO)C(=O)N[C@@H](CO)C(=O)NCC(=O)N[C@@H](CCCNC(=N)N)C(=O)N[C@@H](Cc3ccc(O)cc3)C(=O)N2)CSSC[C@@H](C(=O)N[C@H](C(=O)O)C(C)C)NC(=O)[C@H](C)NC(=O)[C@H](CC(=O)O)NC(=O)[C@H]([C@@H](C)O)NC1=O` here?
**A.** Its Ratio IC50 is 154.

**Q.** And the Ratio IC50 [2]?
**A.** The Ratio IC50 was 4.1.

**Q.** Which results are given for `CC[C@H](C)[C@@H]1NC(=O)[C@H](CCCNC(=N)N)NC(=O)[C@H](CCCNC(=N)N)NC(=O)[C@@H](NC(=O)[C@H](Cc2ccc(O)cc2)NC(=O)[C@H](CCCNC(=N)N)NC(=O)[C@H](CCCNC(=N)N)NC(=O)[C@H](CCCNC(=N)N)NC(=O)[C@H](CCCNC(=N)N)NC(=O)[C@H](C)NC(=O)[C@H](Cc2ccc(O)cc2)NC(=O)[C@@H]2CCCN2C(=O)[C@H](CO)NC(=O)[C@H](CCCNC(=N)N)NC(=O)[C@@H]2CSSC[C@H](NC(=O)[C@@H](N)[C@@H](C)O)C(=O)N[C@@H](CCCNC(=N)N)C(=O)N[C@@H](CO)C(=O)N[C@@H](CO)C(=O)NCC(=O)N[C@@H](CCCNC(=N)N)C(=O)N[C@@H](Cc3ccc(O)cc3)C(=O)N2)CSSC[C@@H](C(=O)N[C@H](C(=O)O)C(C)C)NC(=O)[C@H](C)NC(=O)[C@H](CC(=O)O)NC(=O)[C@H]([C@@H](C)O)NC1=O`?
**A.** Ratio IC50 [1]: 53.3; Ratio IC50 [2]: 1.5

**Q.** Which Ratio IC50 [1] does the source give for `CC[C@H](C)[C@@H]1NC(=O)[C@H](CCCNC(=N)N)NC(=O)[C@H](CCCNC(=N)N)NC(=O)[C@@H]2CSSC[C@H](NC(=O)[C@H](Cc3ccc(O)cc3)NC(=O)[C@H](CCCNC(=N)N)NC(=O)CNC(=O)[C@H](CO)NC(=O)[C@H](CO)NC(=O)[C@H](CCCNC(=N)N)NC(=O)[C@@H](NC(=O)[C@@H](N)[C@@H](C)O)CSSC[C@@H](C(=O)N[C@H](C(=O)O)C(C)C)NC(=O)[C@H](C)NC(=O)[C@H](CC(=O)O)NC(=O)[C@H]([C@@H](C)O)NC1=O)C(=O)N[C@@H](CCCNC(=N)N)C(=O)N[C@@H](CO)C(=O)N1CCC[C@H]1C(=O)N[C@@H](Cc1ccc(O)cc1)C(=O)N[C@@H](CC(=O)O)C(=O)N[C@@H](CCCNC(=N)N)C(=O)N[C@@H](CCCNC(=N)N)C(=O)N[C@@H](CCCNC(=N)N)C(=O)N[C@@H](C)C(=O)N[C@@H](Cc1ccc(O)cc1)C(=O)N2` here?
**A.** The Ratio IC50 was 24.1.

**Q.** And the Ratio IC50 [2]?
**A.** The Ratio IC50 was 0.8.

**Q.** For `CC[C@H](C)[C@@H]1NC(=O)[C@H](C)NC(=O)[C@H](CCCNC(=N)N)NC(=O)[C@@H]2CSSC[C@H](NC(=O)[C@H](Cc3ccc(O)cc3)NC(=O)[C@H](CCCNC(=N)N)NC(=O)CNC(=O)[C@H](CO)NC(=O)[C@H](CO)NC(=O)[C@H](CCCNC(=N)N)NC(=O)[C@@H](NC(=O)[C@@H](N)[C@@H](C)O)CSSC[C@@H](C(=O)N[C@H](C(=O)O)C(C)C)NC(=O)[C@H](C)NC(=O)[C@H](CC(=O)O)NC(=O)[C@H]([C@@H](C)O)NC1=O)C(=O)N[C@@H](CCCNC(=N)N)C(=O)N[C@@H](CO)C(=O)N1CCC[C@H]1C(=O)N[C@@H](Cc1ccc(O)cc1)C(=O)N[C@@H](CC(=O)O)C(=O)N[C@@H](CCCNC(=N)N)C(=O)N[C@@H](CCCNC(=N)N)C(=O)N[C@@H](CCCNC(=N)N)C(=O)N[C@@H](CCCNC(=N)N)C(=O)N[C@@H](Cc1ccc(O)cc1)C(=O)N2`, which Ratio IC50 [1] is on record?
**A.** Its Ratio IC50 is 12.6.

**Q.** What about the Ratio IC50 [2] of the same compound?
**A.** The Ratio IC50 was 2.8.

**Q.** Which Ratio IC50 [1] does the source give for `CC[C@H](C)[C@@H]1NC(=O)[C@H](CCCNC(=N)N)NC(=O)[C@H](CCCNC(=N)N)NC(=O)[C@@H](NC(=O)[C@H](Cc2ccc(O)cc2)NC(=O)[C@H](CCCNC(=N)N)NC(=O)[C@H](CCCNC(=N)N)NC(=O)[C@H](CCCNC(=N)N)NC(=O)[C@H](C)NC(=O)[C@H](CC(=O)O)NC(=O)[C@H](Cc2ccc(O)cc2)NC(=O)[C@@H]2CCCN2C(=O)[C@H](CO)NC(=O)[C@H](CCCNC(=N)N)NC(=O)[C@@H]2CSSC[C@H](NC(=O)[C@H](N)[C@H](C)O)C(=O)N[C@@H](CCCNC(=N)N)C(=O)N[C@@H](CO)C(=O)N[C@@H](CO)C(=O)NCC(=O)N[C@@H](CCCNC(=N)N)C(=O)N[C@@H](Cc3ccc(O)cc3)C(=O)N2)CSSC[C@@H](C(=O)N[C@H](C(=O)O)C(C)C)NC(=O)[C@H](C)NC(=O)[C@H](CC(=O)O)NC(=O)[C@H]([C@@H](C)O)NC1=O` here?
**A.** The Ratio IC50 was 85.6.

**Q.** What about the Ratio IC50 [2] of the same compound?
**A.** The Ratio IC50 was 5.3.

**Q.** For `CC[C@H](C)[C@H]1NC(=O)[C@H](CCCNC(=N)N)NC(=O)[C@H](CCCNC(=N)N)NC(=O)[C@@H](NC(=O)[C@H](Cc2ccc(O)cc2)NC(=O)[C@H](CCCNC(=N)N)NC(=O)[C@H](CCCNC(=N)N)NC(=O)[C@H](CCCNC(=N)N)NC(=O)[C@H](CCCNC(=N)N)NC(=O)[C@H](CC(=O)O)NC(=O)[C@H](Cc2ccc(O)cc2)NC(=O)[C@@H]2CCCN2C(=O)[C@H](CO)NC(=O)[C@H](CCCNC(=N)N)NC(=O)[C@@H]2CSSC[C@H](NC(=O)[C@@H](N)[C@@H](C)O)C(=O)N[C@@H](C)C(=O)N[C@@H](CO)C(=O)N[C@@H](CO)C(=O)NCC(=O)N[C@@H](CCCNC(=N)N)C(=O)N[C@@H](Cc3ccc(O)cc3)C(=O)N2)CSSC[C@@H](C(=O)N[C@H](C(=O)O)C(C)C)NC(=O)[C@H](C)NC(=O)[C@H](CC(=O)O)NC(=O)[C@H]([C@@H](C)O)NC1=O`, which Ratio IC50 [1] is on record?
**A.** The Ratio IC50 was 26.2.

**Q.** And the Ratio IC50 [2]?
**A.** Its Ratio IC50 is 3.7.

**Q.** Which Ratio IC50 [1] does the source give for `CC[C@H](C)[C@@H]1NC(=O)[C@H](CCCNC(=N)N)NC(=O)[C@H](CCCNC(=N)N)NC(=O)[C@@H](NC(=O)[C@H](C)NC(=O)[C@H](CCCNC(=N)N)NC(=O)[C@H](CCCNC(=N)N)NC(=O)[C@H](CCCNC(=N)N)NC(=O)[C@H](CCCNC(=N)N)NC(=O)[C@H](CC(=O)O)NC(=O)[C@H](Cc2ccc(O)cc2)NC(=O)[C@@H]2CCCN2C(=O)[C@H](CO)NC(=O)[C@H](CCCNC(=N)N)NC(=O)[C@@H]2CSSC[C@H](NC(=O)[C@@H](N)[C@@H](C)O)C(=O)N[C@@H](CCCNC(=N)N)C(=O)N[C@@H](CO)C(=O)N[C@@H](CO)C(=O)NCC(=O)N[C@@H](CCCNC(=N)N)C(=O)N[C@@H](Cc3ccc(O)cc3)C(=O)N2)CSSC[C@@H](C(=O)N[C@H](C(=O)O)C(C)C)NC(=O)[C@H](C)NC(=O)[C@H](CC(=O)O)NC(=O)[C@H]([C@@H](C)O)NC1=O` here?
**A.** Its Ratio IC50 is 176.

**Q.** What about the Ratio IC50 [2] of the same compound?
**A.** The Ratio IC50 was 5.4.

**Q.** Which results are given for `CC[C@H](C)[C@@H]1NC(=O)[C@H](CCCNC(=N)N)NC(=O)[C@H](CCCNC(=N)N)NC(=O)[C@@H]2CSSC[C@H](NC(=O)[C@H](Cc3ccc(O)cc3)NC(=O)[C@H](CCCNC(=N)N)NC(=O)CNC(=O)[C@H](CO)NC(=O)[C@H](CO)NC(=O)[C@H](CCCNC(=N)N)NC(=O)[C@@H](NC(=O)[C@@H](N)[C@@H](C)O)CSSC[C@@H](C(=O)N[C@H](C(=O)O)C(C)C)NC(=O)[C@H](C)NC(=O)[C@H](CC(=O)O)NC(=O)[C@H]([C@@H](C)O)NC1=O)C(=O)N[C@@H](CCCNC(=N)N)C(=O)N[C@@H](CO)C(=O)N1CCC[C@H]1C(=O)N[C@@H](Cc1ccc(O)cc1)C(=O)N[C@@H](C)C(=O)N[C@@H](CCCNC(=N)N)C(=O)N[C@@H](CCCNC(=N)N)C(=O)N[C@@H](CCCNC(=N)N)C(=O)N[C@@H](CCCNC(=N)N)C(=O)N[C@@H](Cc1ccc(O)cc1)C(=O)N2`?
**A.** Ratio IC50 [1]: 187; Ratio IC50 [2]: 1

**Q.** With `CC[C@H](C)[C@@H]1NC(=O)[C@H](CCCNC(=N)N)NC(=O)[C@H](CCCNC(=N)N)NC(=O)[C@@H]2CSSC[C@H](NC(=O)[C@H](Cc3ccc(O)cc3)NC(=O)[C@H](CCCNC(=N)N)NC(=O)CNC(=O)[C@H](CO)NC(=O)[C@H](CO)NC(=O)[C@H](CCCNC(=N)N)NC(=O)[C@@H](NC(=O)[C@@H](N)[C@@H](C)O)CSSC[C@@H](C(=O)N[C@H](C(=O)O)C(C)C)NC(=O)[C@H](C)NC(=O)[C@H](CC(=O)O)NC(=O)[C@H]([C@@H](C)O)NC1=O)C(=O)N[C@@H](CCCNC(=N)N)C(=O)N[C@@H](CO)C(=O)N1CCC[C@H]1C(=O)N[C@@H](Cc1ccc(O)cc1)C(=O)N[C@@H](CC(=O)O)C(=O)N[C@@H](CCCNC(=N)N)C(=O)N[C@@H](CCCNC(=N)N)C(=O)N[C@@H](CCCNC(=N)N)C(=O)N[C@@H](CCCNC(=N)N)C(=O)N[C@@H](C)C(=O)N2` as the compound, how does the Ratio IC50 [1] read?
**A.** The Ratio IC50 was 32.6.

**Q.** And the Ratio IC50 [2]?
**A.** Its Ratio IC50 is 1.5.
